Data as given in PubChem BioAssay AID504761 (Drosophila RNAi Screening Center, 2011)

Purpose: 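Insect host genes that dengue virus relies on to spread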 (primary screen)
System: D.Mel-2 cells from Drosophila
Reagent: long dsRNA against Drosophila genes
Treatment: infection with dengue virus type 2; dose and infection time not stated
Read-out: 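Per well on two replicate plates, imaging gave the percent of cells positive for viral envelope protein, ranked by infection, and a nuclear count of cells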
Scale: infection score: higher = more virus-infected cells; cell count: higher = more cells in the well
Call rule: 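Low infection ranks in the two replicates (chance level up to 0.065) followed by a retest with a 1.5-fold or larger significant decrease, p below 0.05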
Meaning of the calls: active = confirmed: knock-down lowers infection; inactive = not picked or not confirmed
In all, the deposit lists about 22,000 reagents; this is a random part of those with a known target gene and a result. Over the whole deposit, 116 (0.52%) are marked active. 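Calls depend on retest data that are not deposited; infection was ranked per plate without normalising between plates; the unit of the infection score is not given.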 The raw values are shown without normalisation. A number with no mark means an inactive call. Further read-outs or replicates are left out here. Not given: the amount of reagent, the time to read-out.

no.	Target gene	dsRNA	infection score, replicate 1	infection score, replicate 2	cell count, replicate 1
1	Gos28 (Golgi SNARE, 28 kDa)	DRSC16292	12.4	3.22	4933
2	Gos28 (Golgi SNARE, 28 kDa)	DRSC22859	1.79	1.27	6049
3	CG42588	DRSC09820	1.59	2.28	6021
4	CG42588	DRSC22121	4.26	8.21	5922
5	CG42588	DRSC26914	16	8.26	6344
6	DptA (Diptericin A)	DRSC07404	1.37	0.75	6045
7	CG15923	DRSC15129	4.35	6.53	6327
8	pds5	DRSC06670	33.6	16.6	4439
9	CG31633	DRSC02275	5.14	0.56	5702
10	CG31633	DRSC27022	13.2	2.83	6521
11	CR15280 (pseudo)	DRSC01953	12.7	3.24	4710
12	CR15280 (pseudo)	DRSC24110	1.62	2.94	6225
13	CG32181	DRSC22635	3.77	3.78	6634
14	CG32181	DRSC26268	11.5	10.6	5720

Targets above whose gene name starts with G or g (2):
Target gene	dsRNA	infection score, replicate 1	infection score, replicate 2	cell count, replicate 1
Gos28 (Golgi SNARE, 28 kDa)	DRSC16292	12.4	3.22	4933
Gos28 (Golgi SNARE, 28 kDa)	DRSC22859	1.79	1.27	6049

Continued:
no.	Target gene	dsRNA	infection score, replicate 1	infection score, replicate 2	cell count, replicate 1
15	Eglp4 (Entomoglyceroporin 4)	DRSC04438	4.06	5.52	6526
16	Eglp4 (Entomoglyceroporin 4)	DRSC25991	1.11	2.69	6389
17	MTF-1 (Metal response element-binding Transcription Factor-1)	DRSC11217	14.1	16.8	4591
18	MTF-1 (Metal response element-binding Transcription Factor-1)	DRSC21341	1.79	4.47	5259
19	CG7544	DRSC07023	10.1	1.14	6485
20	CG9452	DRSC11075	1.04	6.84	6535
21	CG9452	DRSC23344	0.83	24	7347
22	Rpn9 (Regulatory particle non-ATPase 9)	DRSC16840	12.5	12.5	4223
23	Rpn9 (Regulatory particle non-ATPase 9)	DRSC27177	1	11.7	4819
24	eIF2beta (eukaryotic translation initiation factor 2 subunit beta)	DRSC11341	13.8	6.38	2068
25	eIF2beta (eukaryotic translation initiation factor 2 subunit beta)	DRSC28025	19.7	21.8	2803
26	mRpS28 (mitochondrial ribosomal protein S28)	DRSC06939	4.53	1.51	5669
27	CG12951	DRSC14579	1.75	8.53	6819
28	CG12951	DRSC25565	5.82	8.92	6550
29	CG33172	DRSC21793	3.98	8.8	6766
30	Vajk4	DRSC06589	2.68	7.27	6688
31	Vajk4	DRSC07003	8.75	14.3	5439
32	Vajk4	DRSC25326	3.12	4.91	6083
33	CG17919	DRSC12571		12.8	404
34	CG17919	DRSC27860	16.1	22.9	6263
35	TfIIS (RNA polymerase II elongation factor)	DRSC03455	32.7	9.93	4993
36	TfIIS (RNA polymerase II elongation factor)	DRSC24533	0.53	1.18	6172
37	Spec2 (retired record)	DRSC12258	4.33	11.8	5816
38	Spec2 (retired record)	DRSC22886	2.77	0.57	5524
39	CG6656	DRSC16085	4.91	4.42	5766
